# Laboratory results taken from article PMC8580050, “Improvement of the antimicrobial potency, pharmacokinetic and pharmacodynamic properties of albicidin by incorporation of nitrogen atoms” (Chemical Science, 2021).
# System: E.coli DSM1116
# Settings: eight times MIC
smiles,measurement,value
"COc1c(NC(=O)c2ccc(NC(=O)c3ccc(NC(=O)[C@H](Cc4c[nH]nn4)NC(=O)c4ccc(NC(=O)/C(C)=C/c5ccc(O)cc5)cc4)cc3)c(OC)c2O)ccc(C(=O)O)c1O [Compound 2, AzaHis-albicidin]",formation of resistance (FoR),10^−11
